This is an account of results in PMC7179183, “Design of Biphenyl-Substituted Diarylpyrimidines with a Cyanomethyl Linker as HIV-1 NNRTIs via a Molecular Hybridization Strategy” (Molecules, 2020).

One series relates to WT HIV-1 (strain IIIB). In kind it is cell-based. The settings on record: MT-4 cells. Here is the method:
The newly synthesized compounds were evaluated for their potency and cytotoxicity against the WT HIV-1 (strain IIIB) in MT-4 cells using the MTT method. The biological evaluation results are represented as EC50 values (anti-HIV-1 activity), CC50 values (cytotoxicity), and SI values (selectivity index, CC50/EC50 ratio).
Consider `N#Cc1ccc(Nc2nccc(C(C#N)c3ccc(-c4ccc(C#N)cc4)cc3F)n2)cc1` (racemic) [Compound 10p, (±)-4′-(cyano(2-((4-cyanophenyl)amino)pyrimidin-4-yl)methyl)-3′-fluoro-[1,1′-biphenyl]-4-carbonitrile], for which the “Improvement of activity against WT HIV-1 compared with 10c” value worked out at 12 fold.

Staying with this series, now noted: selectivity index, ratio CC50/EC50 (WT).
In the case of `N#Cc1ccc(Nc2nccc(C(C#N)c3ccc(-c4ccccc4)cc3)n2)cc1` (racemic) [Compound 10a, (±)-4-((4-([1,1′-biphenyl]-4-yl(cyano)methyl)pyrimidin-2-yl)amino)benzonitrile], the “SI (IIIB)” value turned out to be 11.
In the case of `N#Cc1ccc(Nc2nccc(C(C#N)c3ccc(-c4ccccc4)c(F)c3)n2)cc1` (racemic) [Compound 10b, (±)-4-((4-(cyano(2-fluoro-[1,1′-biphenyl]-4-yl)methyl)pyrimidin-2-yl)amino)benzonitrile], the “SI (IIIB)” value stood at 6.
Still for that read-out and setting: in the case of `N#Cc1ccc(Nc2nccc(C(C#N)c3ccc(-c4ccccc4)cc3F)n2)cc1` (racemic) [Compound 10c, (±)-4-((4-(cyano(3-fluoro-[1,1′-biphenyl]-4-yl)methyl)pyrimidin-2-yl)amino)benzonitrile] it was 73; in that of `Cc1ccccc1-c1ccc(C(C#N)c2ccnc(Nc3ccc(C#N)cc3)n2)c(F)c1` (racemic) [Compound 10d, (±)-4-((4-(cyano(3-fluoro-2′-methyl-[1,1′-biphenyl]-4-yl)methyl)pyrimidin-2-yl)amino)benzonitrile], 70; in that of `Cc1cccc(-c2ccc(C(C#N)c3ccnc(Nc4ccc(C#N)cc4)n3)c(F)c2)c1` (racemic) [Compound 10e, (±)-4-((4-(cyano(3-fluoro-3′-methyl-[1,1′-biphenyl]-4-yl)methyl)pyrimidin-2-yl)amino)benzonitrile], 63.
The same measure, in the same setting: in the case of `Cc1ccc(-c2ccc(C(C#N)c3ccnc(Nc4ccc(C#N)cc4)n3)c(F)c2)cc1` (racemic) [Compound 10f, (±)-4-((4-(cyano(3-fluoro-4′-methyl-[1,1′-biphenyl]-4-yl)methyl)pyrimidin-2-yl)amino)benzonitrile] it was 72; in that of `COc1ccccc1-c1ccc(C(C#N)c2ccnc(Nc3ccc(C#N)cc3)n2)c(F)c1` (racemic) [Compound 10g, (±)-4-((4-(cyano(3-fluoro-2′-methoxy-[1,1′-biphenyl]-4-yl)methyl)pyrimidin-2-yl)amino)benzonitrile], 49; in that of `COc1cccc(-c2ccc(C(C#N)c3ccnc(Nc4ccc(C#N)cc4)n3)c(F)c2)c1` (racemic) [Compound 10h, (±)-4-((4-(cyano(3-fluoro-3′-methoxy-[1,1′-biphenyl]-4-yl)methyl)pyrimidin-2-yl)amino)benzonitrile], 20.
On the same count and under the same terms, the value for `COc1ccc(-c2ccc(C(C#N)c3ccnc(Nc4ccc(C#N)cc4)n3)c(F)c2)cc1` (racemic) [Compound 10i, (±)-4-((4-(cyano(3-fluoro-4′-methoxy-[1,1′-biphenyl]-4-yl)methyl)pyrimidin-2-yl)amino)benzonitrile] was 361.
For `N#Cc1ccc(Nc2nccc(C(C#N)c3ccc(-c4ccccc4F)cc3F)n2)cc1` (racemic) [Compound 10j, (±)-4-((4-(cyano(2′,3-difluoro-[1,1′-biphenyl]-4-yl)methyl)pyrimidin-2-yl)amino)benzonitrile], the “SI (IIIB)” value came out at 131.
With `N#Cc1ccc(Nc2nccc(C(C#N)c3ccc(-c4cccc(F)c4)cc3F)n2)cc1` (racemic) [Compound 10k, (±)-4-((4-(cyano(3,3′-difluoro-[1,1′-biphenyl]-4-yl)methyl)pyrimidin-2-yl)amino)benzonitrile], the “SI (IIIB)” value is 55.
On the same count and under the same terms, in the case of `N#Cc1ccc(Nc2nccc(C(C#N)c3ccc(-c4ccc(F)cc4)cc3F)n2)cc1` (racemic) [Compound 10l, (±)-4-((4-(cyano(3,4′-difluoro-[1,1′-biphenyl]-4-yl)methyl)pyrimidin-2-yl)amino)benzonitrile] it was 139; in that of `N#Cc1ccc(Nc2nccc(C(C#N)c3ccc(-c4ccccc4Cl)cc3F)n2)cc1` (racemic) [Compound 10m, (±)-4-((4-((2′-chloro-3-fluoro-[1,1′-biphenyl]-4-yl)(cyano)methyl)pyrimidin-2-yl)amino)benzonitrile], 81; in that of `N#Cc1ccc(Nc2nccc(C(C#N)c3ccc(-c4cccc(Cl)c4)cc3F)n2)cc1` (racemic) [Compound 10n, (±)-4-((4-((3′-chloro-3-fluoro-[1,1′-biphenyl]-4-yl)(cyano)methyl)pyrimidin-2-yl)amino)benzonitrile], 71.
As for `N#Cc1ccc(Nc2nccc(C(C#N)c3ccc(-c4ccc(Cl)cc4)cc3F)n2)cc1` (racemic) [Compound 10o, (±)-4-((4-((4′-chloro-3-fluoro-[1,1′-biphenyl]-4-yl)(cyano)methyl)pyrimidin-2-yl)amino)benzonitrile], the “SI (IIIB)” value came to 153.
`N#Cc1ccc(Nc2nccc(C(C#N)c3ccc(-c4ccc(C#N)cc4)cc3F)n2)cc1` (racemic) [Compound 10p, (±)-4′-(cyano(2-((4-cyanophenyl)amino)pyrimidin-4-yl)methyl)-3′-fluoro-[1,1′-biphenyl]-4-carbonitrile]: the “SI (IIIB)” value is 1361.
For `Nc1ccn([C@@H]2CS[C@H](CO)O2)c(=O)n1` [Compound 3TC, lamivudine, reference compound], the “SI (IIIB)” value is reported as over 11.
On to `Cc1cc(/C=C/C#N)cc(C)c1Nc1ccnc(Nc2ccc(C#N)cc2)n1` [RPV, rilpivirine, reference compound], for which the “SI (IIIB)” value is given as 3747.
